Assay results from patent US4383114A, “Adenosine deaminase resistant antiviral purine arabinonucleosides” (priority 1981, dated 1983).

Tested on: Herpes simplex virus, type 1, strain HS-123
Assay: chemotherapy experiment against lethal HSV-1 infections in mice
Details: for Mortality: No. Dead/Total No. of Mice / Mortality %: 21 days; for Mortality %: p << 0.0005 (Table 3)

Nc1ncnc2c1ncn2[C@@H]1O[C@H](CO)[C@@H](O)[C@@H]1O [ara-A, reference compound]
Avg. Body Wt. on Day 0 (Ara-A 125 mg/kg/day + virus): 20 gm | Avg. Body Wt. on Day 7 (Ara-A 125 mg/kg/day + virus): 23.4 gm | Avg. Body Wt. on Day 14 (Ara-A 125 mg/kg/day + virus): 25.9 gm | Avg. Body Wt. on Day 21 (Ara-A 125 mg/kg/day + virus): 28.2 gm | Mortality: No. Dead/Total No. of Mice (Ara-A 125 mg/kg/day + virus): 0/10 | Mortality % (Ara-A 125 mg/kg/day + virus): 0% | Avg. Body Wt. on Day 0 (Ara-A 250 mg/kg/day + virus): 19.9 gm | Avg. Body Wt. on Day 7 (Ara-A 250 mg/kg/day + virus): 20.3 gm | Avg. Body Wt. on Day 14 (Ara-A 250 mg/kg/day + virus): 23.1 gm | Avg. Body Wt. on Day 21 (Ara-A 250 mg/kg/day + virus): 25.9 gm | Mortality: No. Dead/Total No. of Mice (Ara-A 250 mg/kg/day + virus): 1/10 | Mortality % (Ara-A 250 mg/kg/day + virus): 10% | Death Pattern, deaths on day 7 post-virus inoculation (Ara-A 250 mg/kg/day + virus, of 10 mice): 1 | Mean Survival Time (Ara-A 250 mg/kg/day i.p. qd 7 days, HSV-1 infected, dying animals only): 7.0 days
